Experimental findings from PMC5364394 are described below.

Protein sequences, listed by entry. Tags and fused reporters are not part of them. Residues count along the entry.
UniProt Q07955, 1-197, stated change not applied: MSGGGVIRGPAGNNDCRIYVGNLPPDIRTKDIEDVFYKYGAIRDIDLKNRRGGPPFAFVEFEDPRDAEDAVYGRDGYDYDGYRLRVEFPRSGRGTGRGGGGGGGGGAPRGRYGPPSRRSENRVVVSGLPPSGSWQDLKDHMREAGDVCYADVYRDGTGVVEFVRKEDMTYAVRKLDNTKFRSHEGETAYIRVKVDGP
UniProt Q07955, whole entry: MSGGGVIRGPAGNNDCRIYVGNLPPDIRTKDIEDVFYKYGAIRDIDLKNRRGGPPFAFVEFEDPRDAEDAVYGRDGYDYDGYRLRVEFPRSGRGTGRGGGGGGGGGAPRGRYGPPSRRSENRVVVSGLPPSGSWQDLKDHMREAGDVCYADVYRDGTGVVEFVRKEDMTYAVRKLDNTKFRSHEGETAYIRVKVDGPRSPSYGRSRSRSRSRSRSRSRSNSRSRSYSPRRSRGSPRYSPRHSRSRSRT

The exact form of at least one protein or probe is not confirmed. Results from cells or extracts need not show a direct contact. For some assays here: At least one verdict rests on a figure or table, not on a statement of the authors.

Data set [1] concerns the target FLAG-SF2/ASF delta-RS (human) (UniProt Q07955). Put plainly: EMSA. The following applies: protein in a lysate after overexpression, protein details: FLAG, label: IRDye-800. A general note: A gel shift assay detects complexes by their altered migration in electrophoresis.
Data set [2] concerns the target FLAG-SF2/ASF full length (nuclear extract) (human) (UniProt Q07955). Put plainly: competition with a labelled probe. The following applies: protein in a lysate after overexpression; protein details: FLAG.

For CUUCUCUUCCAGGA [NS-acceptor site (AS)], the binding result in data set [1] (strong binding) is given as “binds”.
For GACAUACUAAUGAGGAUGUC [QH15-NS-529-548], in data set [1], the binding result is “binds”.
Turning to “GACAUACUAUUGAGGAUGUC [Aichi68-NS-529-548]”, in data set [1], the binding result is given as “binds”.
Take “GACAUACUGACAAGGAUGUC [H7N9-NS-529-548 cold competitor (WT)]”: the binding result in data set [2] was “binds”.
On to GACAUACUGAUGAGGAUGUC [WSN-NS-529-548], for which the binding result in data set [1] was “binds”.
For GACAUACUGCUGAGGAUGUC [PR8-NS-529-548], the binding result in data set [1] is on record as “binds”.
Same read-out and setting: as for GACAUACUGGUGAGGAUGUC [1194-NS-529-548], the entry is “binds”.
Still for that read-out and setting: the value for GACAUACUUAUGAGGAUGUC [CA04-NS-529-548] was “binds”.
